# Values joined by “and” are separate entries in the source; they are usually repeats but may differ in a detail not shown here. Equal entries are not always repeated.
# Tested on: T. cruzi Tulahuen lacZ strain
# Experiment: Anti-T. cruzi activity, intracellular amastigotes in HFF-1 cells, beta-galactosidase/CPRG readout
# Conditions: selectivity index, HFF-1 cytotoxicity vs T. cruzi activity
row,Structure (SMILES),SI
1,"CCCCc1ccc(C(=O)[O][Mg][O]C(=O)c2ccc(CCCC)cn2)nc1 [Compound 2, magnesium complex of fusaric acid]",4.80–5.25 and > 5.25
2,"C[C@@H](O)CCc1ccc(C(=O)O)nc1 [Compound 7, (R)‐fusarinolic acid]",> 1.06
3,"CSC12CC3=CC=CC(OC(C)=O)C3N1C(=O)C1(SC)CC3=CC=CC(OC(C)=O)C3N1C2=O (centres unmarked) [Compound 4, haematocin]",4.80–5.25 and > 4.80
4,"CCCCc1ccc(C(=O)O)nc1 [Compound 5, fusaric acid]",> 3 and > 3.06
5,"CC(C)=CCCC(C)(O)C1CCC(C)(O)C1C (centres unmarked) [Compound 8, cyclonerodiol]",> 3 and > 2.81
